## PSTVd stem 26 mutant pool in Nicotiana benthamiana

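Three N. benthamiana plants were inoculated with the whole mutant pool. Progeny were sequenced from the inoculated region (day 5), the margin of the inoculated leaf (day 10) and systemic leaves (day 12).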

The pool varies stem 26 of the PSTVd intermediate strain in the pattern AGGGUNNCNN; wild type is AGGGUACCCU (upper and lower strand joined, each 5' to 3', the first 5 letters being the upper strand).

Values are reads per thousand in the sample; higher means more abundant, 0 means not found. Each value is the mean of three plants. "Pool" is the share in the plasmid pool used as inoculum, on the same scale. The inoculated region was read from the minus strand, the other sites from the plus strand.

sequence | pool | inoculated region | leaf margin | systemic leaves
AGGGAACCCU | 0.0329 | 0.554 | 0.616 | 0.656
AGGGUAACAU | 4.10 | 1.37 | 0.0719 | 0.0543
AGGGUAACGC | 2.86 | 0.787 | 0 | 0
AGGGUAACUC | 4.61 | 3.20 | 0.681 | 0.292
AGGGUACCAC | 3.64 | 1.25 | 0.00871 | 0
AGGGUACCAU | 3.67 | 2.70 | 2.55 | 0.651
AGGGUACCCU | 44.9 | 356 | 823 | 901
AGGGUACCUU | 2.96 | 28.6 | 18.6 | 16.8
AGGGUACGCG | 0.0329 | 0 | 0 | 0
AGGGUAGCCU | 4.24 | 2.20 | 0.0546 | 0.187
AGGGUAGCGG | 5.97 | 3.84 | 0.0186 | 0.0172
AGGGUAGUCA | 0.0329 | 0 | 0 | 0
AGGGUAUACU | 0.0329 | 0 | 0 | 0
AGGGUAUCAC | 2.62 | 2.28 | 0.649 | 0.00623
AGGGUAUCGC | 2.80 | 2.06 | 0.565 | 0
AGGGUAUCUG | 2.76 | 2.31 | 0.602 | 0
AGGGUAUCUU | 3.98 | 2.63 | 0.671 | 0.275
AGGGUAUUCU | 0.0164 | 0 | 0 | 0
AGGGUCAAAU | 0.740 | 0.136 | 0 | 0
AGGGUCACAU | 2.60 | 0.760 | 0 | 0
AGGGUCACCG | 3.64 | 1.19 | 0.00992 | 0
AGGGUCACGC | 4.11 | 2.76 | 0.00992 | 0.00475
AGGGUCACGU | 4.52 | 2.62 | 0 | 0.143
AGGGUCACUA | 2.94 | 1.08 | 0 | 0.00475
AGGGUCCCCG | 3.82 | 1.39 | 0 | 0
AGGGUCCCUG | 3.88 | 1.83 | 0.00992 | 0
AGGGUCGCCA | 6.02 | 2.96 | 1.12 | 0.0660
AGGGUCGCCC | 7.30 | 5.99 | 0.683 | 0.130
AGGGUCGCUG | 4.11 | 2.43 | 0.0186 | 0.186
AGGGUCGUCG | 0.0493 | 0 | 0 | 0
AGGGUCUCAC | 6.30 | 7.37 | 2.26 | 0.511
AGGGUCUCAG | 2.91 | 0.741 | 0.00992 | 0
AGGGUCUCCU | 4.62 | 2.42 | 0.0595 | 0.00950
AGGGUCUCUC | 4.82 | 3.79 | 1.27 | 0.848
AGGGUGACGC | 2.80 | 2.18 | 0.678 | 0
AGGGUGACGG | 5.07 | 2.25 | 0 | 0.00475
AGGGUGAGCA | 0.0329 | 0.00875 | 0 | 0
AGGGUGAUCC | 0.0329 | 1.60 | 1.38 | 0.726
AGGGUGCCAA | 2.70 | 0.777 | 0 | 0
AGGGUGCCCU | 3.73 | 40.5 | 11.9 | 4.51
AGGGUGCCUG | 2.80 | 2.30 | 0.624 | 0
AGGGUGGCCG | 3.67 | 1.29 | 0.00742 | 0
AGGGUGGCGA | 2.94 | 0.838 | 0.00992 | 0
AGGGUGGCGU | 4.52 | 1.82 | 0.00742 | 0
AGGGUGGCUA | 2.80 | 2.05 | 0.800 | 0
AGGGUGGCUG | 2.55 | 2.07 | 0.738 | 0
AGGGUGUCCA | 3.14 | 2.57 | 0.666 | 0.287
AGGGUGUCCU | 3.75 | 2.86 | 0.735 | 2.51
AGGGUGUCGU | 3.47 | 2.31 | 0.550 | 0.298
AGGGUGUCUC | 3.67 | 2.76 | 1.44 | 1.92
AGGGUGUGCC | 0.0329 | 1.36 | 1.44 | 0.562
AGGGUGUUGC | 0.0329 | 1.44 | 1.21 | 0.667
AGGGUUACAG | 5.64 | 2.51 | 0 | 0.0103
AGGGUUACAU | 3.29 | 0.912 | 0.00992 | 0
AGGGUUACCA | 2.71 | 0.954 | 0 | 0.00475
AGGGUUACCC | 0.0493 | 0.411 | 0 | 0.0275
AGGGUUACGC | 2.42 | 0.817 | 0 | 0
AGGGUUACUA | 3.47 | 1.08 | 0.0173 | 0
AGGGUUAUCA | 0.0493 | 0.0143 | 0 | 0
AGGGUUAUCG | 0.0329 | 0.0245 | 0 | 0
AGGGUUAUCU | 0.0329 | 0 | 0 | 0
AGGGUUCACC | 0.0329 | 0.00875 | 0 | 0
AGGGUUCCCC | 3.26 | 0.743 | 0.00992 | 0
AGGGUUCCCU | 4.57 | 2.21 | 0.272 | 0.287
AGGGUUCCGU | 3.55 | 1.10 | 0.00992 | 0
AGGGUUGCAA | 3.22 | 0.758 | 0 | 0
AGGGUUGCGU | 4.47 | 1.77 | 0.119 | 0.0950
AGGGUUGCUU | 3.40 | 1.23 | 0.252 | 0.0428
AGGGUUUCAA | 3.91 | 1.54 | 0.0173 | 0.00623
AGGGUUUCGC | 5.38 | 5.12 | 1.12 | 0.384
AGGGUUUCUU | 9.79 | 4.14 | 2.33 | 0.353
AGGGUUUUCU | 0.0329 | 0.0222 | 0 | 0
AGGUUAACUA | 0.0329 | 0 | 0 | 0
AGGUUACCCA | 0.0329 | 0.0444 | 0.0373 | 0
AGGUUUGCAG | 0.0329 | 0 | 0 | 0

Sequences that differ at fixed positions probably stem from PCR or sequencing errors, and defective variants can be carried along by functional ones. Wild type was 44.9 per thousand in the pool and the most common sequence in every sample (inoculated region 297, 323, 447; leaf margin 793, 829, 846; systemic leaves 974, 853, 877). Samples held 23,251 to 70,159 reads, so the smallest values rest on one or two reads.

Reference: Wu et al. 2024, doi:10.1371/journal.ppat.1012142.